PubChem BioAssay AID624099 | ICCB-Longwood – 2012
This is an unselected part of about 21,000 deposited reagents. 497 of all reagents (2.4%) were called active. 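Higher z means weaker E2 silencing; only reporter increases were scored, and knock-downs that hurt cell survival may mask genuine repressor factors.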 Reagents against one gene are numbered here. No sequences are given here.

- Purpose: 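Human genes that papillomavirus E2 requires to repress the HPV18 LCR promoter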 (primary screen)
- Cell system: human C33A cervical carcinoma cells (HPV-negative) stably expressing BPV1 E2 and an HPV18 LCR luciferase reporter
- Reagent: siRNA pool against human genes, 40 nM
- Timing: 72 h
- Detection: 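Per-well luciferase luminescence, z-scored on each plate against the plate mean and SD with control wells left out, then averaged across three replicate plates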
- Reading the numbers: mean z-score and z-score: higher = stronger reporter signal, weaker E2 silencing
- Hit rule: 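Hit if mean z-score reaches 2 and two or more of three replicate z-scores also reach 2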

For RPL6 (GeneID 6128), what was measured?
mean z-score: -2.05; z-score, replicate A: -2.04; z-score, replicate B: -2.02; z-score, replicate C: -2.08; Call: inactive

What is on record for CNGA4 (GeneID 1262)?
mean z-score: 0.14; z-score, replicate A: 0.16; z-score, replicate B: 0.27; z-score, replicate C: -0.03; Call: inactive

With FOXN3 (GeneID 1112) #1, how do the results read?
mean z-score: -0.93; z-score, replicate A: -0.96; z-score, replicate B: -0.74; z-score, replicate C: -1.09; Call: inactive

For FOXN3 (GeneID 1112) #2, how do the results read?
mean z-score: -0.51; z-score, replicate A: -0.31; z-score, replicate B: -0.63; z-score, replicate C: -0.58; Call: inactive

2 successive reagents already listed:
RPL6 (GeneID 6128) | mean z-score: -2.05; z-score, replicate A: -2.04; z-score, replicate B: -2.02; z-score, replicate C: -2.08; Call: inactive
CNGA4 (GeneID 1262) | mean z-score: 0.14; z-score, replicate A: 0.16; z-score, replicate B: 0.27; z-score, replicate C: -0.03; Call: inactive

The list goes on.
For CR1 (GeneID 1378), what does the deposit list?
mean z-score: 0.16; z-score, replicate A: 0.08; z-score, replicate B: 0.25; z-score, replicate C: 0.14; Call: inactive

For MAPK14 (GeneID 1432), what was measured?
mean z-score: -0.23; z-score, replicate A: 0.07; z-score, replicate B: -0.15; z-score, replicate C: -0.62; Call: inactive

For ATP2C1 (GeneID 27032), what was measured?
mean z-score: 0.49; z-score, replicate A: 0.24; z-score, replicate B: 0.64; z-score, replicate C: 0.59; Call: inactive

What is on record for SPMIP11 (GeneID 255411)?
mean z-score: -0.7; z-score, replicate A: -0.57; z-score, replicate B: -0.67; z-score, replicate C: -0.87; Call: inactive

How did the screen score ZSWIM4 (GeneID 65249)?
mean z-score: -1.42; z-score, replicate A: -1.26; z-score, replicate B: -1.3; z-score, replicate C: -1.68; Call: inactive

Which result is listed for PPP2R2B (GeneID 5521)?
mean z-score: 0.5; z-score, replicate A: 0.75; z-score, replicate B: 0.38; z-score, replicate C: 0.38; Call: inactive

What is on record for ACSM2B (GeneID 348158)?
mean z-score: 1.5; z-score, replicate A: 1.06; z-score, replicate B: 1.58; z-score, replicate C: 1.85; Call: inactive

With LOC388807 (retired record) (GeneID 388807), what was measured?
mean z-score: -0.4; z-score, replicate A: -0.45; z-score, replicate B: -0.46; z-score, replicate C: -0.29; Call: inactive

For TP73 (GeneID 7161), what does the deposit list?
mean z-score: 1.27; z-score, replicate A: 1.19; z-score, replicate B: 1.31; z-score, replicate C: 1.31; Call: inactive

Which result is listed for SUDS3P1 (GeneID 285647)?
mean z-score: -1.34; z-score, replicate A: -1.62; z-score, replicate B: -1.21; z-score, replicate C: -1.2; Call: inactive
